The test system of assay [1] is Human immunodeficiency virus type 1 reverse transcriptase (Human immunodeficiency virus 1), Q72547 [M184V]. The experiment in a line: Ratio of Kpol to Kd for HIV1 LAI reverse transcriptase M184V mutant. Summed up:
(§1)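 Pre-steady-state rapid quench: 400 nM active-site RT and 40 nM ³²P-P20/T57 DNA T/P were preincubated in 50 mM Tris-HCl pH 7.5, 50 mM KCl, then mixed with nucleotide in the same buffer containing 20 mM MgCl₂. Quenched with 0.3 M EDTA from 10 ms to 30 min, run on urea-PAGE. kobs came from single-exponential fits; kpol and Kd came from a hyperbolic fit versus nucleotide concentration.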

Assay [2] deals with Human immunodeficiency virus type 1 reverse transcriptase (Human immunodeficiency virus 1), Q72547 [M41L,L210W,T215Y]. The experiment in a line: Ratio of Kpol to Kd for HIV1 LAI reverse transcriptase M41L/L210W/T215Y mutant. Summed up: as §1
Assay [3] relates to Human immunodeficiency virus type 1 reverse transcriptase (Human immunodeficiency virus 1), Q72547 [M41L,L210W,T215Y,M184V]. The experiment in a line: Ratio of Kpol to Kd for HIV1 LAI reverse transcriptase M41L/L210W/T215Y/M184V mutant. Summed up:
as §1

For assay [4], the system named is Human immunodeficiency virus 1. The experiment in a line: Ratio of Kpol to Kd for HIV1 LAI reverse transcriptase M41L/L210W/T215Y/M184V/G333D mutant. Summed up: as §1

Molecules are shown by their SMILES.

The values that follow come from ChEMBL document CHEMBL1153554, “Mechanisms by which the G333D mutation in human immunodeficiency virus type 1 Reverse transcriptase facilitates dual resistance to zidovudine and lamivudine” (Antimicrob Agents Chemother, 2008).

On to `Cc1cn([C@H]2C[C@H](O)[C@@H](COP(=O)(O)OP(=O)(O)OP(=O)(O)O)O2)c(=O)[nH]c1=O` [DEOXYTHYMIDINE_TRIPHOSPHATE], for which the Ratio in assay [1] came out at 2.3; in assay [2], 4.17; in assay [3] it was 1.98; in assay [4], 1.7.
